Consider one sequence from publication PMC10128069, “A Fijivirus Major Viroplasm Protein Shows RNA-Stimulated ATPase Activity by Adopting Pentameric and Hexameric Assemblies of Dimers” (mBio, 2023).

This series concerns the target P9-1 (Mal de Rio Cuarto virus (MRCV)) (UniProt D9U542). In words: EMSA. The note with it: 6.5 uM protein, 250 uM RNA, no extra-retarded pattern as seen with long RNA; 10 mM Tris-HCl, 50 mM KCl, 0.5 mM EDTA, 10% glycerol, 1 mM DTT, pH 7.5; 30 min at room temperature; 6.5% native PAGE at 4 C; recombinant protein; residues 1-337; protein details: N-terminal 52-residue tag (6xHis/Xpress/EK); label: 5'-Cy5.

Construct, isoform or probe ends are uncertain for at least one entry. At least one verdict rests on a figure or table, not on a statement of the authors.

“CAUCAUGCAGGACAGUCGGAUCGCAGUCAG [30-nt Cy5-ssRNA]”: the binding result is “binds”.
